Record: PubChem BioAssay AID1259414 (Drosophila RNAi Screening Center, 2018)
The deposit covers about 24,000 reagents; shown is a random part of those that have a named target and a result. Over the whole deposit, about 1,210 (5%) were called active. 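Inactive calls also include excluded dsRNAs with several or no targets, genes unexpressed in JW18, and well A1, regardless of score.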 Names joined by + are all predicted targets of the reagent. Reagent sequences are not shown.

Aim: 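Host factors increasing or decreasing Wolbachia levels in cultured fly cells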 (primary screen)
System: Drosophila JW18 cells infected with Wolbachia
Reagent: long dsRNA against Drosophila genes, 0.25 µg dsRNA per well of a 384-well plate
Time to read-out: 5 days
Treatment: cells persistently infected with Wolbachia before knock-down; no added drug
Measurement: 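Imaged fluorescence in situ signal for Wolbachia 23S rRNA per DAPI-counted host cell, given as a robust z-score within each plate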
Scale: Wolbachia per cell robust z: higher = more Wolbachia per host cell than the plate typical
Call rule: 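Hit when robust z is 1.5 or more, or -1.5 or less, in at least two of three replicates; excludes dsRNAs with several or no targets, genes not expressed in JW18 and well A1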

no.	gene	amplicon	Wolbachia per cell robust z, rep 1	Wolbachia per cell robust z, rep 2	Wolbachia per cell robust z, rep 3	activity call
1	Taf1 (GeneID 40813)	DRSC12607	-1.12	0.778	0.375	inactive
2	Taf1 (GeneID 40813)	DRSC29806	-1.06	-0.0959	0.847	inactive
3	CG8517 (GeneID 37268)	DRSC07205	0.533	-0.133	-0.347	inactive
4	CG32040 (GeneID 317835)	DRSC22459	1.62	0.802	0.551	inactive
5	CG8958 (GeneID 32575)	DRSC20134	1.22	-1.67	0.734	inactive
6	CG8958 (GeneID 32575)	DRSC29479	-0.387	-0.785	0.128	inactive
7	CG30275 (GeneID 246522)	DRSC04163	0.891	0.529	0.405	inactive
8	Adk2 (GeneID 39479)	DRSC09827	0.461	0.0835	0.314	inactive
9	Or83a + CG1172	DRSC12357	0.691	0.238	-0.0932	inactive
10	CG13578 (GeneID 37891)	DRSC04214	-1.66	-1.05	-2.82	inactive
11	CG31125 (GeneID 318599)	DRSC13684	-0.363	-0.0866	-0.046	inactive
12	CG31125 (GeneID 318599)	DRSC25124	-1.36	-1.66	-1.52	active
13	Tom20 (GeneID 40189)	DRSC10899	-1.76	0.562	1.07	inactive
14	CG14718 (GeneID 41413)	DRSC14941	-0.561	0.385	-0.315	inactive
15	ct (GeneID 44540)	DRSC18757	-1.43	-1.72	-1.52	inactive
16	ct (GeneID 44540)	DRSC25100	0.218	1.6	2.24	inactive
17	CG34446 (GeneID 5740549)	DRSC24507	-0.0422	0.0586	-0.32	inactive

2 entries from above, ordered by “Wolbachia per cell robust z, rep 3”, highest first:
gene	amplicon	Wolbachia per cell robust z, rep 1	Wolbachia per cell robust z, rep 2	Wolbachia per cell robust z, rep 3	activity call
CG31125 (GeneID 318599)	DRSC13684	-0.363	-0.0866	-0.046	inactive
CG31125 (GeneID 318599)	DRSC25124	-1.36	-1.66	-1.52	active

Continued.
no.	gene	amplicon	Wolbachia per cell robust z, rep 1	Wolbachia per cell robust z, rep 2	Wolbachia per cell robust z, rep 3	activity call
18	CSN8 (GeneID 49077)	DRSC02257	-0.0078	-0.515	-0.466	inactive
19	peng (GeneID 33112)	DRSC20583	-1.89	-0.546	-1.01	inactive
20	peng (GeneID 33112)	DRSC29638	-0.838	-1.75	-2	active
21	Galphas (GeneID 37805)	DRSC04616	0.26	0.0215	-0.829	inactive
22	CG7024 (GeneID 31407)	DRSC18414	0.238	0.0715	0.529	inactive
23	CG7024 (GeneID 31407)	DRSC27277	-0.553	0.652	0.81	inactive
24	mtTFB2 (GeneID 41228)	DRSC15519	0.173	0.476	-0.469	inactive
25	Phax (GeneID 35926)	DRSC07066	0.923	1.05	-0.504	inactive
26	CysRS-m (GeneID 36563)	DRSC07129	-0.231	0.677	0.845	inactive
27	CG13532 (GeneID 37632)	DRSC04174	0.505	-0.283	-5.17	inactive
28	CG5934 (GeneID 43289)	DRSC15922	-0.00552	-1.64	-1.64	active
29	CG5934 (GeneID 43289)	DRSC27431	-1.08	-0.44	0.943	inactive
